System: Isolated Langendorff-perfused sheep hearts with tachypacing induced chronic/persistent atrial fibrillation
Assay: Optical mapping of isolated Langendorff-perfused sheep hearts with tachypacing induced chronic/persistent atrial fibrillation
[1] = 4 hearts, baseline vs right before termination
[2] = pacing at 2.5 HZ, 200 nM, baseline vs after AF termination

With `CC[C@H](C)[C@@H]1NC(=O)[C@H](CCCNC(=N)N)NC(=O)[C@H](CC(N)=O)NC(=O)[C@@H]2CSSC[C@@H](C(=O)NCC(=O)N[C@@H](CCCCN)C(=O)N[C@@H](CCCCN)C(N)=O)NC(=O)[C@H](CCCCN)NC(=O)[C@H](CCCCN)NC(=O)[C@H](Cc3c[nH]c4ccccc34)NC(=O)[C@H](CSSC[C@H](NC(=O)[C@H](CC(C)C)NC(=O)[C@H](C)N)C(=O)N[C@@H](CC(N)=O)C(=O)N2)NC(=O)[C@H](CCC(N)=O)NC(=O)[C@H](Cc2c[nH]cn2)NC(=O)[C@@H]2CCCN2C(=O)[C@H]([C@@H](C)CC)NC(=O)[C@H]([C@@H](C)CC)NC1=O` [TertiapinQ] the “Time of application until heart reverted to normal sinus rhythm” value (200 nM, one example heart) was 4 min, the “Dominant frequency (DF) in PLA, LA and RA, 2 minutes after application” value (200 nM, one example heart, 2 minutes) was “decrease” and the “Dominant frequency (DF) in the PLA, LA, and RA” value [1] was “significantly decreased”. The “Singularity point (SP) density in the PLA” value [1] was “significantly decreased”, the “Hearts in which sinus rhythm was restored” value (100 to 200 nM) was 4 out of 5 and the “APD50 in the PLA, LA, and RA” value [2] was “significantly prolonged”. For the same compound, the “APD75 in the PLA, LA, and RA” value [2] was “significantly prolonged”.

— patent publication US11014971B2, “Peptibodies, compositions thereof, and methods of treating atrial fibrillation” (University of South Florida, priority 2016, dated 2021)
